Library screen at single concentrations

Mtb glucose medium: 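Growth of Mycobacterium tuberculosis over 3 days (7H9 medium with glucose and tyloxapol); the read-out is not stated. Tested at 50 µM. Higher reads as more growth inhibition (inferred: compounds with an IC50 in retests scored well above the rest). About 69,000 compounds were tested under these conditions; 1.1% (about 760) showed 50% or more at least once.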
Mtb cholesterol medium: 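Growth of Mycobacterium tuberculosis over 4 days (cholesterol / DPPC medium with tyloxapol); the read-out is not stated. Compounds at 50 µM. The record gives no direction; compounds that gave an IC50 in retests scored well above the rest, so higher reads as more growth inhibition. Of about 69,000 compounds tested this way, about 370 (0.54%) reached 50% or more in at least one test.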

Results are given as percent effect.
How 0% and 100% were set is not recorded. Most values in the screen are low, and negative values occur.
The entries come from a sample that favours strong results.
Two or more numbers in one place are separate tests of the same structure; such repeats can differ widely.
A dash means the value is not listed here; it may have been measured.

{"compound": "CN(Cc1cscn1)C1CCCN(Cc2noc(C3CC3)n2)C1", "stereo": "stereo not given", "Mtb glucose medium": -2.278}
{"compound": "COCC(=O)N1CCC(C(=O)c2cc(C)cnc2N)CC1", "Mtb cholesterol medium": -8.118}
{"compound": "CO[C@H]1CCN(Cc2ccoc2)C[C@@H]1Cc1ccccc1.O=C(O)C(F)(F)F", "Mtb glucose medium": -31.35}
{"compound": "CCc1[nH]c2c(CNc3nccc(N)n3)cc(C)cc2c1C", "Mtb glucose medium": 42.24, "Mtb cholesterol medium": 20.01}
{"compound": "CCCc1cncnc1N1CCC(NCc2ccncc2)CC1", "Mtb glucose medium": "-25.35 and -7.79", "Mtb cholesterol medium": -6.838}
{"compound": "COc1ccc(C2CC(=O)Nc3nc(N4CCOCC4)sc32)cc1", "stereo": "stereo not given", "Mtb glucose medium": 41}
{"compound": "CCC(C)Oc1ccc(CNCCNC(C)=O)cc1Cl", "stereo": "stereo not given", "Mtb cholesterol medium": 1.695}
{"compound": "N#Cc1cn[nH]c1NCc1cc(Cl)cc(Cl)c1O", "Mtb glucose medium": -21.24}
{"compound": "CCn1ccc(-c2cc(NCCCOc3cccc(C)c3)nc(C)n2)n1", "Mtb cholesterol medium": 74.82}
{"compound": "[H][C@@]12CC[C@H](Oc3ccccc3Cl)[C@]1([H])CN(C(=O)CN(C)C)C2", "Mtb cholesterol medium": 9.936}
{"compound": "CC(C)Oc1cccc(CN(C)C(=O)Cc2ccon2)c1", "Mtb glucose medium": "34.93 and -55.91"}
{"compound": "O=C(O)C(F)(F)F.[H][C@@]12CO[C@H](CNS(C)(=O)=O)[C@]1([H])CCN(CCc1ccccc1)C2", "Mtb cholesterol medium": 0.7518}
{"compound": "O=C(O)C(F)(F)F.O=C(O)C(F)(F)F.c1cncc(-c2ccc3c(c2)CCC32CCN(Cc3nccs3)CC2)c1", "Mtb glucose medium": "40.75 and 47.77", "Mtb cholesterol medium": 19.61}
{"compound": "O=C(O)C(F)(F)F.[H][C@@]12CN(CC)C[C@]1([H])[C@H](OC)CCN2C(=O)Cc1ccsc1", "Mtb cholesterol medium": 17.02}
{"compound": "CN(Cc1cccc(-n2cccn2)c1)C(=O)c1ccnc(N)c1", "Mtb glucose medium": -12.85, "Mtb cholesterol medium": -5.286}
{"compound": "O=C(c1cnc(O)c(Cl)c1)N1CCCC(c2nccs2)C1", "stereo": "stereo not given", "Mtb cholesterol medium": "-13.89 and -7.283"}
{"compound": "CN(Cc1cc(F)ccc1F)CC(C)(CO)CO", "Mtb glucose medium": -9.221}
{"compound": "OCC1(O)CCN(Cc2ccc(-c3cc[nH]n3)s2)CC1", "Mtb glucose medium": "13.13 and 1.735"}
{"compound": "CC(C)c1noc(CCC(=O)N2CCSCC2)n1", "Mtb glucose medium": -4.656}
{"compound": "O=C(O)C(F)(F)F.O=C(O)C(F)(F)F.[H][C@@]12COC[C@@H](C(=O)Nc3cccnc3)[C@]1([H])CN(C1CCCC1)C2", "Mtb cholesterol medium": -5.594}
{"compound": "CN(CCc1cccs1)C1CCCN(Cc2noc(C3CC3)n2)C1", "stereo": "stereo not given", "Mtb cholesterol medium": 50.75}
{"compound": "Cc1ccc(CN(CCCn2ccnc2)Cc2cc(F)ccc2F)s1.O=C(O)CC(O)(CC(=O)O)C(=O)O", "Mtb glucose medium": 59.69}
{"compound": "CCCc1nc(Nc2cccc(C(N)=O)c2)c2c(n1)c(C)nn2CC", "Mtb glucose medium": -9.483, "Mtb cholesterol medium": 3.059}
{"compound": "O=C(CNc1cc(-c2ccccc2)nc2ccnn12)NC1CC1", "Mtb cholesterol medium": "4.169 and -3.539"}
{"compound": "CC(C)c1nc(CN2CCC(c3ccnn3CCO)CC2)no1", "Mtb glucose medium": -12.89}
{"compound": "CC(SCCC(=O)NC(N)=O)c1ccc(F)cc1F", "stereo": "stereo not given", "Mtb glucose medium": "-5.16 and 10.03", "Mtb cholesterol medium": -1.681}
{"compound": "CCc1cc(N(C)Cc2ccncn2)n2nc(C)c(C)c2n1", "Mtb glucose medium": 77.46, "Mtb cholesterol medium": 68.2}
{"compound": "N#CC1(NC(=O)COc2cc(Cl)cc(Cl)c2)CCOCC1", "Mtb glucose medium": "-0.4305 and 22.21"}
{"compound": "NC(=O)c1cc(C2CCCN(C(=O)CCc3ccncc3)C2)n[nH]1", "stereo": "stereo not given", "Mtb glucose medium": 65.05}
{"compound": "CN1CCN(Cc2cccnc2)C(=O)C12CCN(Cc1ccco1)CC2.O=C(O)C(F)(F)F.O=C(O)C(F)(F)F.O=C(O)C(F)(F)F", "Mtb glucose medium": 16.99}
{"compound": "CCn1ccnc1CN(C)Cc1nc(Cc2cccc(F)c2)no1", "Mtb cholesterol medium": -3.052}
{"compound": "COc1cccc(CN2CCC(O)(c3ccc(C)cn3)CC2)c1OC", "Mtb glucose medium": "-42.21 and -2.666"}
{"compound": "CCN1CCC(CC(=O)NC[C@H]2CCc3ccccc3O2)CC1", "Mtb glucose medium": "6.31 and 7.633", "Mtb cholesterol medium": -0.1835}
{"compound": "c1csc(CCNc2nc(-c3ccncc3)nc3c2CCNCC3)c1", "Mtb glucose medium": "52.53 and 49.98"}
{"compound": "c1ccc(NCc2ccc(Cn3ccnc3)cc2)nc1", "Mtb glucose medium": 13.03, "Mtb cholesterol medium": 12.78}
{"compound": "CN(C)CCNC(=O)c1cnc2c(c1)nc(-c1ccccc1Cl)n2C", "Mtb glucose medium": 19.36}
{"compound": "CC(NC(=O)Cn1cccnc1=O)c1ccc(C(F)(F)F)cc1", "stereo": "stereo not given", "Mtb cholesterol medium": "8.743 and -181"}
{"compound": "Cn1ncc(NCc2cccc(COC(C)(C)C)c2)c(Cl)c1=O", "Mtb cholesterol medium": 37.68}
{"compound": "CC(NC(=O)CN1CCN(c2cccc(Cl)c2)CC1)c1ccco1", "stereo": "stereo not given", "Mtb glucose medium": 38.71, "Mtb cholesterol medium": -6.868}
{"compound": "O=C(O)c1cc(-c2ccc3c(c2)OCO3)cc(S(=O)(=O)NC2CC2)c1", "Mtb glucose medium": -0.18}
{"compound": "O=C(c1ccc2c(c1)OCO2)N1CCCSCC1CN1CCCC1", "stereo": "stereo not given", "Mtb glucose medium": 6.975}
{"compound": "CC(=O)N1CCCC1C(=O)NCCOc1cc(C)cc(C)c1", "stereo": "stereo not given", "Mtb glucose medium": -10.91, "Mtb cholesterol medium": -26.14}
{"compound": "Cc1nnc(NC(=O)CN2CCCC(c3ccn[nH]3)C2)s1", "stereo": "stereo not given", "Mtb glucose medium": -8.195}

For reference, 6 entries once more:

Compound,Mtb glucose medium,Mtb cholesterol medium
CCc1cc(N(C)Cc2ccncn2)n2nc(C)c(C)c2n1,77.46,68.2
CN(C)CCNC(=O)c1cnc2c(c1)nc(-c1ccccc1Cl)n2C,19.36,-
c1ccc(NCc2ccc(Cn3ccnc3)cc2)nc1,13.03,12.78
CC(=O)N1CCCC1C(=O)NCCOc1cc(C)cc(C)c1 (stereo not given),-10.91,-26.14
CC(NC(=O)CN1CCN(c2cccc(Cl)c2)CC1)c1ccco1 (stereo not given),38.71,-6.868
CN(Cc1cc(F)ccc1F)CC(C)(CO)CO,-9.221,-

From ChEMBL document CHEMBL3988442, “University of Dundee, Small-Polar-MMV Screening Library” (2021).